These are literature values, as cited in patent US10092573B2, “Gastric and colonic formulations and methods for making and using them” (Salix Pharmaceuticals, Inc., priority 2010, dated 2018).

This series has as its system colonic bacteria / faecal flora.

Consider `OC[C@@H](O)[C@@H](O)CO` [Erythritol, (2R,3S)-butane-1,2,3,4-tetraol], for which the “metabolism by faecal (fecal) flora” value was “no significant metabolism”. Also, for the setting “only non-combustible short chain fatty acids and CO2 in small amounts”, the “fermentation by colonic bacteria” value is “none or minimal fermentation”.
